We go through two sequences from PMC9723642.

Where cells or extracts were used, other partners may take part. For part of these data: Negatives hold for the conditions tested. For part of these data: The exact form of at least one protein or probe is not confirmed. For part of these data: The comparison behind a weaker result is the experiment's own reference, which may not be listed here. For part of these data: At least one verdict rests on a figure or table, not on a statement of the authors. For part of these data: Where a protein sequence is shown, tags need not be part of it.

What all share (assay): pull-down
In data set [1] the target is HA-NCL-wt (H1299) (Homo sapiens) (UniProt P19338). The following applies: pull-down: RNA folded in 100 mM KCl, 90 min at room temperature, washes 200-800 mM KCl, protein in a lysate after overexpression, protein details: HA, label: 3' biotin-TEG.
In data set [2] the target is HA-NCL expressed in yeast (Homo sapiens) (UniProt P19338). The settings on record: pull-down: RNA folded in 100 mM KCl, 90 min at room temperature, washes 200-800 mM KCl, protein in a lysate after overexpression, protein details: HA, label: 3' biotin-TEG.
The target of data set [3] is T1, nsr1ΔRGG (Saccharomyces cerevisiae (Y32 rggΔ)) (UniProt P27476).
T1 sequence (looked up, limits assumed): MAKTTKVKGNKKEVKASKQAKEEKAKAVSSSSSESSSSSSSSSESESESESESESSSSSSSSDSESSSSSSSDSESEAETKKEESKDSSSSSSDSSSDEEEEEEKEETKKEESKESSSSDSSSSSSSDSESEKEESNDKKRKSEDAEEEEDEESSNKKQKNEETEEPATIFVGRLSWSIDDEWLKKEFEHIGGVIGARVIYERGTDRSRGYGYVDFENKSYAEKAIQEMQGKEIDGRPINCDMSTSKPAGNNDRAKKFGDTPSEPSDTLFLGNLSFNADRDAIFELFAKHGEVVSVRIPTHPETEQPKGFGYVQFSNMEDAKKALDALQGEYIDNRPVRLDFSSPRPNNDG
The following applies: residual binding, comparable with Nsr1 on GM; pull-down: RNA folded in 100 mM KCl, 90 min at room temperature, washes 200-800 mM KCl; protein in an extract; label: 3' biotin-TEG.

Data set [4] concerns the target HA-NCL-R10A R656A,R660A,R666A,R670A,R673A,R679A,R681A,R687A,R691A,R694A (Homo sapiens) (UniProt P19338). The following applies: text: does not bind, legend: only residual binding; pull-down: RNA folded in 100 mM KCl, 90 min at room temperature, washes 200-800 mM KCl; protein in a lysate after overexpression; protein details: HA; label: 3' biotin-TEG.
For data set [5], the target named is HA-NCLΔRGG expressed in yeast (Homo sapiens) (UniProt P19338). The settings on record: residual binding; pull-down: RNA folded in 100 mM KCl, 90 min at room temperature, washes 200-800 mM KCl; protein in a lysate after overexpression; protein details: HA; label: 3' biotin-TEG.
Data set [6] deals with HA-NCL-R10F R656F,R660F,R666F,R670F,R673F,R679F,R681F,R687F,R691F,R694F (Homo sapiens) (UniProt P19338). The settings on record: pull-down: RNA folded in 100 mM KCl, 90 min at room temperature, washes 200-800 mM KCl, protein in a lysate after overexpression, protein details: HA, label: 3' biotin-TEG.

With GGGGCAGGAGCAGGAGGA [GQ], the binding result in data set [1] is recorded as “binds”; in data set [2], “binds”; in data set [3], “binds more weakly”; in data set [4], “no binding”; in data set [5], “binds more weakly”; in data set [6] (binds, less efficiently than wt) it was “binds more weakly”.
For GAGGCAGUAGCAGUAGAA [GM], the binding result in data set [1] (G4-dependent binding), in data set [2] (residual binding) and in data set [6] (G4-dependent binding) was “binds more weakly” in each case.
